Reference: patent publication US20260232713A1, “PLECOMACROLIDE DERIVATIVES FOR MHC-I NEF DOWNMODULATION” (priority 2022, published 2026)

Target: HIV-Nef (Human immunodeficiency virus type 1, UniProt P03406)
Test: Inhibition of HIV-Nef downmodulation of MHC-I HLA-A2 on the surface of HIV ΔGPE infected primary CD4+ T cells (flow cytometry)
Format: cell-based
Settings: HLA-A2 surface expression, 24 hours after treatment

| Substance | IC50 [µM] |
| --- | --- |
| 23-OH-tylactone [Compound S46, reference compound] | > 1 |
| Des-tylactone [Compound S47, reference compound] | > 1 |
